B1: MX1055 (protein)
chain 1: EIVMTQSPAILSVSPGERATLSCRASQSVAINLAWYQQKPGQAPRLLIYAASSRATGIPGRFSGSGSETNFTLTISSLQSGDFAVYYCQQYITWPPSYTFGQGTKLEIKGGSSGDTVMTQSPLSLPVTPGEPASISCRSSQSLLNSNGYNYLDWYVQKPGQSPQLLIYLGSNRASGVPDRFSGSGSGTDFTLKISRVEAEDVGVYYCMQPLQTPLFTFGPGTKVEIKGGGGSGGSGSGGGGSASGSGQVTLRESGPALVKPTQTLTLTCTFSGFSLSTRGVCVSWIRQPPGKALEWLAFIDWDDDKYYNTSLKTRLTISKDTSKNQVVLTMTNVHPVDTATYYCARISSHHGSSWCTTFDYWGQGALVTVSAGGSSGEVQLVESGGALIQPGGSLRLSCAASGIIVSANYMSWVRQAPGKGLEWVSVIYSGGSTFYADSVKGRFTISRDNSKNTLYLEMNSLRAEDTAVYYCARDAPILGVSDWGQGTLVTVSSASGGSGDKTHTCPPCPAPELLGGPSVFLFPPKPKDTLMISRTPEVTCVVVDVSHEDPEVKFNWYVDGVEVHNAKTKPREEQYNSYVVSVLTVLHQDWLNGKEYKCKVSNKALPAPIEKTISKAKGQPREPQVYTLPPCRDELTKNQVSLWCLVKGFYPSDIAVEWESNGQPENNYKTTPPVLDSDGSFFKKLTVDKSRWQQGNVFSCSVLHEALHSHYTQKSLSLSPG
chain 2: DTVMTQSPLSLPVTPGEPASISCRSSQSLLNSNGYNYLDWYVQKPGQSPQLLIYLGSNRASGVPDRFSGSGSGTDFTLKISRVEAEDVGVYYCMQPLQTPLFTFGPGTKVEIKGGSSGQTVVTQEPSFSVSPGGTVTLTCGLSSGSVSTAYFPSWYQQTPGQAPRTLIYGTNTRSSGVPDRFSGSILGNKAALTITGAQADDESDYYCVLYMGRGIVVFGGGTKLTVLGGGGSGGSGSGGGGSASGSGQVQLVESGGGVVQPGRSLRLSCAASGFTLSSYGMHWVRQAPGKGLEWVAVISYDGSNKYYVDSVKGRFTISRDNSKNTLYLQMNSLRAEDTAVYYCRWAYWELLPDYYYGMDVWGQGTTVTVSSGGSSGQVTLRESGPALVKPTQTLTLTCTFSGFSLSTRGVCVSWIRQPPGKALEWLAFIDWDDDKYYNTSLKTRLTISKDTSKNQVVLTMTNVHPVDTATYYCARISSHHGSSWCTTFDYWGQGALVTVSAASGGSGDKTHTCPPCPAPELLGGPSVFLFPPKPKDTLMISRTPEVTCVVVDVSHEDPEVKFNWYVDGVEVHNAKTKPREEQYNSYVVSVLTVLHQDWLNGKEYKCKVSNKALPAPIEKTISKAKGQPREPQVCTLPPSRDELTKNQVSLSCAVKGFYPSDIAVEWESNGQPENNYKTTPPVLDSDGSFFLVSKLTVDKSRWQQGNVFSCSVLHEALHSHYTQKSLSLSPG
B2: MX1042 (bispecific antibody)
chain: DTVMTQSPLSLPVTPGEPASISCRSSQSLLNSNGYNYLDWYVQKPGQSPQLLIYLGSNRASGVPDRFSGSGSGTDFTLKISRVEAEDVGVYYCMQPLQTPLFTFGPGTKVEIKGGSSGEIVLTQSPGTLSLSPGETATLSCRASQSFSSDLAWYQQKPGQAPRLLIYGASSRATGIPDRFSGSGSGTDFTLTISRLEPADFAVYYCQQYGSSPPVTFGGGTKVEIKGGGGSGGSGSGGGGSASGSGEVQLVESGGGLIQPGGSLRLSCAASGVIVSYNYMNWVRQAPGKGLEWVSVIYSGGSTFYADSVRGRFTISRDNSKNTLYLQMNSLRAEDTAVYYCARDLGPAGAFDIWGLGTMVTVSSGGSSGQVTLRESGPALVKPTQTLTLTCTFSGFSLSTRGVCVSWIRQPPGKALEWLAFIDWDDDKYYNTSLKTRLTISKDTSKNQVVLTMTNVHPVDTATYYCARISSHHGSSWCTTFDYWGQGALVTVSAASGGSGDKTHTCPPCPAPELLGGPSVFLFPPKPKDTLMISRTPEVTCVVVDVSHEDPEVKFNWYVDGVEVHNAKTKPREEQYNSYVVSVLTVLHQDWLNGKEYKCKVSNKALPAPIEKTISKAKGQPREPQVYTLPPSRDELTKNQVSLTCLVKGFYPSDIAVEWESNGQPENNYKTTPPVLDSDGSFFKKLTVDKSRWQQGNVFSCSVLHEALHSHYTQKSLSLSPG
B3: MX1069 (protein)
chain 1: QTVVTQEPSFSVSPGGTVTLTCGLSSGSVSTAYFPSWYQQTPGQAPRTLIYGTNTRSSGVPDRFSGSILGNKAALTITGAQADDESDYYCVLYMGRGIVVFGGGTKLTVLGGSSGEIVLTQSPGTLSLSPGETATLSCRASQSFSSDLAWYQQKPGQAPRLLIYGASSRATGIPDRFSGSGSGTDFTLTISRLEPADFAVYYCQQYGSSPPVTFGGGTKVEIKGGGGSGGSGSGGGGSASGSGEVQLVESGGGLIQPGGSLRLSCAASGVIVSYNYMNWVRQAPGKGLEWVSVIYSGGSTFYADSVRGRFTISRDNSKNTLYLQMNSLRAEDTAVYYCARDLGPAGAFDIWGLGTMVTVSSGGSSGQVQLVESGGGVVQPGRSLRLSCAASGFTLSSYGMHWVRQAPGKGLEWVAVISYDGSNKYYVDSVKGRFTISRDNSKNTLYLQMNSLRAEDTAVYYCRWAYWELLPDYYYGMDVWGQGTTVTVSSASGGSGDKTHTCPPCPAPELLGGPSVFLFPPKPKDTLMISRTPEVTCVVVDVSHEDPEVKFNWYVDGVEVHNAKTKPREEQYNSYVVSVLTVLHQDWLNGKEYKCKVSNKALPAPIEKTISKAKGQPREPQVYTLPPCRDELTKNQVSLWCLVKGFYPSDIAVEWESNGQPENNYKTTPPVLDSDGSFFKKLTVDKSRWQQGNVFSCSVLHEALHSHYTQKSLSLSPG
chain 2: EIVLTQSPGTLSLSPGETATLSCRASQSFSSDLAWYQQKPGQAPRLLIYGASSRATGIPDRFSGSGSGTDFTLTISRLEPADFAVYYCQQYGSSPPVTFGGGTKVEIKGGSSGDTVMTQSPLSLPVTPGEPASISCRSSQSLLNSNGYNYLDWYVQKPGQSPQLLIYLGSNRASGVPDRFSGSGSGTDFTLKISRVEAEDVGVYYCMQPLQTPLFTFGPGTKVEIKGGGGSGGSGSGGGGSASGSGQVTLRESGPALVKPTQTLTLTCTFSGFSLSTRGVCVSWIRQPPGKALEWLAFIDWDDDKYYNTSLKTRLTISKDTSKNQVVLTMTNVHPVDTATYYCARISSHHGSSWCTTFDYWGQGALVTVSAGGSSGEVQLVESGGGLIQPGGSLRLSCAASGVIVSYNYMNWVRQAPGKGLEWVSVIYSGGSTFYADSVRGRFTISRDNSKNTLYLQMNSLRAEDTAVYYCARDLGPAGAFDIWGLGTMVTVSSASGGSGDKTHTCPPCPAPELLGGPSVFLFPPKPKDTLMISRTPEVTCVVVDVSHEDPEVKFNWYVDGVEVHNAKTKPREEQYNSYVVSVLTVLHQDWLNGKEYKCKVSNKALPAPIEKTISKAKGQPREPQVCTLPPSRDELTKNQVSLSCAVKGFYPSDIAVEWESNGQPENNYKTTPPVLDSDGSFFLVSKLTVDKSRWQQGNVFSCSVLHEALHSHYTQKSLSLSPG
B4: E12 (antibody, V domains shown)
VH: EVQLVESGGGLIQPGGSLRLSCAASGVIVSYNYMNWVRQAPGKGLEWVSVIYSGGSTFYADSVRGRFTISRDNSKNTLYLQMNSLRAEDTAVYYCARDLGPAGAFDIWGLGTMVTVSS
VL: EIVLTQSPGTLSLSPGETATLSCRASQSFSSDLAWYQQKPGQAPRLLIYGASSRATGIPDRFSGSGSGTDFTLTISRLEPADFAVYYCQQYGSSPPVTFGGGTKVEIK
B5: MX1043 (bispecific antibody)
chain: EIVLTQSPGTLSLSPGETATLSCRASQSFSSDLAWYQQKPGQAPRLLIYGASSRATGIPDRFSGSGSGTDFTLTISRLEPADFAVYYCQQYGSSPPVTFGGGTKVEIKGGSSGQTVVTQEPSFSVSPGGTVTLTCGLSSGSVSTAYFPSWYQQTPGQAPRTLIYGTNTRSSGVPDRFSGSILGNKAALTITGAQADDESDYYCVLYMGRGIVVFGGGTKLTVLGGGGSGGSGSGGGGSASGSGQVQLVESGGGVVQPGRSLRLSCAASGFTLSSYGMHWVRQAPGKGLEWVAVISYDGSNKYYVDSVKGRFTISRDNSKNTLYLQMNSLRAEDTAVYYCRWAYWELLPDYYYGMDVWGQGTTVTVSSGGSSGEVQLVESGGGLIQPGGSLRLSCAASGVIVSYNYMNWVRQAPGKGLEWVSVIYSGGSTFYADSVRGRFTISRDNSKNTLYLQMNSLRAEDTAVYYCARDLGPAGAFDIWGLGTMVTVSSASGGSGDKTHTCPPCPAPELLGGPSVFLFPPKPKDTLMISRTPEVTCVVVDVSHEDPEVKFNWYVDGVEVHNAKTKPREEQYNSYVVSVLTVLHQDWLNGKEYKCKVSNKALPAPIEKTISKAKGQPREPQVYTLPPSRDELTKNQVSLTCLVKGFYPSDIAVEWESNGQPENNYKTTPPVLDSDGSFFKKLTVDKSRWQQGNVFSCSVLHEALHSHYTQKSLSLSPG
B6: MX1089 (protein)
chain 1: QTVVTQEPSFSVSPGGTVTLTCGLSSGSVSTAYFPSWYQQTPGQAPRTLIYGTNTRSSGVPDRFSGSILGNKAALTITGAQADDESDYYCVLYMGRGIVVFGGGTKLTVLGGSSGEIVMTQSPAILSVSPGERATLSCRASQSVAINLAWYQQKPGQAPRLLIYAASSRATGIPGRFSGSGSETNFTLTISSLQSGDFAVYYCQQYITWPPSYTFGQGTKLEIKGGGGSGGSGSGGGGSASGSGEVQLVESGGALIQPGGSLRLSCAASGIIVSANYMSWVRQAPGKGLEWVSVIYSGGSTFYADSVKGRFTISRDNSKNTLYLEMNSLRAEDTAVYYCARDAPILGVSDWGQGTLVTVSSGGSSGQVQLVESGGGVVQPGRSLRLSCAASGFTLSSYGMHWVRQAPGKGLEWVAVISYDGSNKYYVDSVKGRFTISRDNSKNTLYLQMNSLRAEDTAVYYCRWAYWELLPDYYYGMDVWGQGTTVTVSSASGGSGDKTHTCPPCPAPELLGGPSVFLFPPKPKDTLMISRTPEVTCVVVDVSHEDPEVKFNWYVDGVEVHNAKTKPREEQYNSYVVSVLTVLHQDWLNGKEYKCKVSNKALPAPIEKTISKAKGQPREPQVYTLPPCRDELTKNQVSLWCLVKGFYPSDIAVEWESNGQPENNYKTTPPVLDSDGSFFKKLTVDKSRWQQGNVFSCSVLHEALHSHYTQKSLSLSPG
chain 2: DTVMTQSPLSLPVTPGEPASISCRSSQSLLNSNGYNYLDWYVQKPGQSPQLLIYLGSNRASGVPDRFSGSGSGTDFTLKISRVEAEDVGVYYCMQPLQTPLFTFGPGTKVEIKGGSSGEIVLTQSPGTLSLSPGERATLSCRASQSVSSSYLAWYQQKPGQAPRLLIYSASSRATGIPDRFSGSGSGTDFTLTISRLEPEDFAVYFCQQYVGLTGWTFGQGTKVEIKGGGGSGGSGSGGGGSASGSGQMQLVQSGPEVKKPGTSVKVSCKASGFTFTSSAVQWVRQRQRLEWIGWIVVGSGNTNYAQKFQERVTITRDMSTSTAYMELSSLRSEDTAVYYCAAPNCSNVVCYDGFDIWGQGTMVTVSSGGSSGQVTLRESGPALVKPTQTLTLTCTFSGFSLSTRGVCVSWIRQPPGKALEWLAFIDWDDDKYYNTSLKTRLTISKDTSKNQVVLTMTNVHPVDTATYYCARISSHHGSSWCTTFDYWGQGALVTVSAASGGSGDKTHTCPPCPAPELLGGPSVFLFPPKPKDTLMISRTPEVTCVVVDVSHEDPEVKFNWYVDGVEVHNAKTKPREEQYNSYVVSVLTVLHQDWLNGKEYKCKVSNKALPAPIEKTISKAKGQPREPQVCTLPPSRDELTKNQVSLSCAVKGFYPSDIAVEWESNGQPENNYKTTPPVLDSDGSFFLVSKLTVDKSRWQQGNVFSCSVLHEALHSHYTQKSLSLSPG

Molecular target: SARS-CoV-2 spike protein, Omicron sublineage BA.2.75.2 (SARS-CoV-2), P0DTC2
Assay: cell-based or functional assay

Row | Binder | IC50 (pseudovirus neutralization) [nM] | IC80 (pseudovirus neutralization) [nM]
1 | B1 | 2.32 | 7.23
2 | B2 | 0.01 | 0.05
3 | B3 | 1.81 | 3.33
4 | B4 | 6.99 | 40.1
5 | B5 | 2.06 | 4.01
6 | B6 | 7.16 | 7.84
